Laboratory results from PMC11599018.
pKd: −log10 of the molar value. Read-outs that look alike come from different tables or passages of the source.

By UniProt entry, the sequences of proteins in these tests, tags left out. Residues count along the entry.
UniProt P30530, 26-449: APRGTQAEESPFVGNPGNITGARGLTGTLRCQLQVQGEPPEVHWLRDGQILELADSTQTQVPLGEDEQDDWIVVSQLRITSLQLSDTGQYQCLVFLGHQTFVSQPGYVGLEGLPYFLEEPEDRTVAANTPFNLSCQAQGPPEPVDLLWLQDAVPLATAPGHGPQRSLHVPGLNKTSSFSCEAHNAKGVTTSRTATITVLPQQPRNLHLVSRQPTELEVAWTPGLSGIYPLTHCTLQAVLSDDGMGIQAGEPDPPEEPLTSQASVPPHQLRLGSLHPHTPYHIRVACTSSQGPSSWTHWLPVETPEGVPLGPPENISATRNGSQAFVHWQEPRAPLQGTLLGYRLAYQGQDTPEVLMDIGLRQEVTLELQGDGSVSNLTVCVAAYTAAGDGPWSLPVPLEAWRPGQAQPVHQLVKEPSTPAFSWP

Legend:
Human Axl (human) [1] = biological target: Human Axl (human) (UniProt P30530); test: MST
Human Axl (human) [2] = biological target: Human Axl (human) (UniProt P30530); test: AFM single molecule force spectroscopy
Human Axl (human) [3] = biological target: Human Axl (human) (UniProt P30530); test: AFM single molecule force spectroscopy; remark: listed apart in the source

## Human Gas6 protein (ligand)
Human Axl (human) [1]
  pKd: 6.90
Human Axl (human) [2]
  binding frequency: 43%
  koff: 0.264 s⁻¹
Human Axl (human) [3]
  koff: 0.262 s⁻¹
